Compound potency records, mixed from different reports. Data source: NIAID ChemDB in PubChem.

All rows: tests in culture; organism: Mycobacterium tuberculosis

MIC bound: limit read from a one-dose screen. a–b is a range or a potency band. ECn: concentration that inhibits the pathogen or its effect by n%. MIC50, MIC90 and the like: level of inhibition, or share of isolates inhibited. Percent inhibition refers to the dose given; in toxicity tests it is the harm to the cells. Rows are shuffled and stem from different studies. Blank or dashed fields: not listed here.

SMILES	strain	mutations	cells	read by	setting	measure	dose	result
CCCCC(CC)CN1CN(CC(CC)CCCC)CC(C)(NCCN[C@H](CO)CCSC)C1						MIC		50 µM
O=C1NC(=S)N/C1=C/c1ccccc1Cl	H37Rv			BACTEC		EC50		>6.25 µg/mL
O=C(/C=C/c1ccncc1)c1ccco1	H37Rv					inhibition	12.5 µg/mL	0%
CCn1c(SCC(=O)N/N=C/c2cccc([N+](=O)[O-])c2)nnc1-c1ccco1	H37Rv					inhibition	6.25 µg/mL	3%
Cc1cn2c(C(=O)NCc3cccc(F)c3)c(C)nc2s1	H37Rv			resazurin / fluorescence		MIC		<0.195 µM
O=C1NC(=S)N/C1=C\c1c(F)cccc1Cl	H37Rv			BACTEC		inhibition	6.25 µg/mL	0%
C[C@H](NCCNC[C@@H]1CC[C@H]2C[C@@H]1C2(C)C)C1CCCCC1						MIC		25 µM
O=C(NNC(=S)Nc1cccc(Cl)c1)c1ccncc1	H37Rv		VERO			MIC		0.78 µg/mL
Cc1cn2c(C(=O)NCc3ccc(C(F)(F)F)cc3)c(C)nc2s1	H37Rv	QcrB6 A317T		resazurin / fluorescence		MIC		4.7 µM
COc1ccc(-c2cc(CN3CCOCC3)c(C)n2-c2ccc(F)cc2)cc1	H37Rv					MIC90		>13.4 µM
CNn1cc(C(=O)O)c(=O)c2cc(F)c(N3CCN(C)CC3)cc21	19 strains					MIC90		12.5 µg/mL
CCn1cc(C(=O)O)c(=O)c2cc(F)c(N3CCN(c4nnc(SCC(=O)c5ccc(Cl)cc5)s4)C(C)C3)c(OC)c21	H37Rv			broth dilution		MIC90		1 µg/mL
CCCCN(CCNCCc1ccccc1OC)Cc1ccccc1						MIC		50 µM
O=C1NC(=S)N/C1=C\c1ccc(O)cc1	H37Rv			BACTEC		EC50		>6.25 µg/mL
CCn1cc(C(=O)O)c(=O)c2cc(F)c(N3CCN(c4nnc(SCC(=O)c5ccccc5)s4)C(C)C3)c(OC)c21	H37Rv			broth dilution		inhibition	20 µg/mL	0%
COc1ccc(OC)c2c(NCCNCCO)cc(NCCNCCO)nc12.Cl.Cl.Cl	H37Rv			BACTEC		inhibition	12.5 µg/mL	42%
CO[C@H]1/C=C/O[C@@]2(C)Oc3c(C)c(O)c4c(O)c(c(/C=N/N5CCN(C)CC5)c(O)c4c3C2=O)NC(=O)/C(C)=C\C=C\[C@H](C)[C@H](O)[C@@H](C)[C@@H](O)[C@@H](C)[C@H](OC(C)=O)[C@@H]1C	H37Rv	EJMCh6A MmpL3  (V684A)		visual reading / absorbance		MIC90		0.6 µM
O=[N+]([O-])c1ccc(-n2cc(CNC3c4ccccc4-c4ccccc43)nn2)cc1	Specimen 192			broth dilution		MIC99		>261 µM
CCn1c(SCC(=O)N/N=C/c2cccc(OC)c2)nnc1-c1ccco1	H37Rv					MIC		>6.25 µg/mL
COc1ccc(/C=C2/NC(=S)NC2=O)cc1OC	H37Rv			BACTEC		inhibition	6.25 µg/mL	0%
CCn1cc(C(=O)O)c(=O)c2cc(F)c(N3CCN(c4nnc(SCC(=O)c5ccc(O)cc5)s4)C(C)C3)c(OC)c21	H37Rv			broth dilution		MIC90		15 µg/mL
CCCCC(CC)CN1CN(CC(CC)CCCC)CC(C)(NCCNCc2ccc(OC)cc2OC)C1						MIC		25 µM
Cc1cn2c(C(=O)NCc3ccc(N4CCOCC4)c(F)c3)c(C)nc2s1	H37Rv	QcrB5 M342I		resazurin / fluorescence		MIC		1.2 µM
COc1nc2ccc(Br)cc2cc1[C@@H](c1ccccc1)[C@@](O)(CCN(C)C)c1cccc2ccccc12	clinical isolate MAL010119			resazurin		MIC90		0.03125 µg/mL
O=C1CCCN1CCCNCCNCCCCc1ccccc1						MIC		25 µM
CCc1ccc(-c2cc(CN3CCOCC3)c(C)n2-c2ccc(F)cc2)cc1	H37Rv DR3	V681I S87P				MIC		0.66 µM
CC1COc2c(N3CCN(C)CC3)c(F)cc3c(=O)c(C(=O)O)cn1c23	Clinical isolate unspecified			resazurin	clinical isolate	MIC		0.6 µM
CCn1cc(C(=O)O)c(=O)c2cc(F)c(N3CCNCC3)cc21	134 strains					MIC50		4 µg/mL
CN[C@@H]1[C@H](O[C@H]2[C@H](O[C@H]3[C@H](O)[C@@H](O)[C@H](N=C(N)N)[C@@H](O)[C@@H]3N=C(N)N)O[C@@H](C)[C@]2(O)C=O)O[C@@H](CO)[C@H](O)[C@H]1O	3694/83 (streptomycin-resistant)					MIC		25–50 µg/mL
Cc1cn2c(C(=O)NCc3ccc(Oc4ccc(F)cc4)cc3)c(C)nc2s1	H37Rv			luminescence		MIC		25.7 µM
O=C1CSC(COc2ccc(Cl)cc2Cl)O1	H37Rv			BACTEC		MIC bound		>12.5 µg/mL
c1ccc(CCCNCCNC23CC4CC(CC(C4)C2)C3)cc1						MIC		37.5 µM
S=C(c1cccs1)N1CCN(c2ccccc2Cl)CC1	H37Rv			resazurin		MIC bound		>6.25 µg/mL
COc1cnc2ccc(=O)n(CCN3CCC(NCc4cc(Cl)c(Cl)cn4)CC3)c2c1	Erdman			resazurin		MIC		0.04 µg/mL
Cc1cc2nc(CCC3CCCCC3)[nH]c2cc1C	H37Rv	4/1 MmpL3 (V285A)		visual reading / absorbance		MIC90		2.9 µM
CC(=O)OC[C@H]1O[C@@H](n2ccc(-n3cncn3)nc2=O)C[C@@H]1N=[N+]=[N-]	H37Rv			BACTEC		MIC bound		>12.5 µg/mL
O=c1[nH]c(=O)n(COCCO)cc1[N+](=O)[O-]	H37Ra					EC50		>100 µg/mL
O=C1NC(=S)N/C1=C/c1ccc(C(F)(F)F)cc1	H37Rv			BACTEC		EC50		<6.25 µg/mL
CC(C)CN1CC(=O)N2CCCN2C(=O)C1	H37Rv			BACTEC		MIC bound		>12.5 µg/mL
CCc1ccc(-n2cc(CNC3c4ccccc4-c4ccccc43)nn2)cc1	Specimen 192			broth dilution		MIC99		136 µM
COC(=O)CCc1cc(=O)oc2ccc3cc(CC(=O)OC)oc3c12	H37Rv			BACTEC		MIC bound		>6.25 µg/mL
N#C/C(=C\c1cccc(F)c1F)n1nnc2ccccc21	ATCC 27294					MIC90		92.4 µM
COc1ccc(-c2oc3cc(OC)cc(OC)c3c(=O)c2-c2c(-c3ccc(OC)cc3)oc3cc(OC)cc(OC)c3c2=O)cc1						EC50		>12.5 µg/mL
O=C1NC(=S)N/C1=C/C=C/c1ccccc1	H37Rv			BACTEC		EC50		<6.25 µg/mL
Cc1c(CN2CCOCC2)cc(-c2ccc(Cl)cc2)n1-c1ccc(C(C)C)cc1	H37Rv					MIC90		6.74 µM
[N-]=[N+]=NC(CCl)c1cn(COCCO)c(=O)[nH]c1=O	H37Ra					EC50		10 µg/mL
CN1c2ccc(C=O)cc2Sc2cc(C=O)ccc21	H37Rv			BACTEC		MIC bound		≤12.5 µg/mL
CCn1c(SCC(=O)N/N=C/C=C/c2ccc([N+](=O)[O-])o2)nnc1-c1ccco1	H37Rv					inhibition	6.25 µg/mL	61%
Cc1nc(C(N)=O)c(C(N)=O)nc1C	H37Rv			BACTEC		inhibition	12.5 µg/mL	11%
CCn1c(SCC(=O)N/N=C/c2cc(O)ccc2Br)nnc1-c1ccco1	H37Rv					MIC		>6.25 µg/mL
N#C/C(=C\c1ccc(C#N)cc1)n1nnc2ccccc21	ATCC 27294					MIC90		>100 µM
CCC(Oc1c2ccoc2c(OC)c2oc(=O)cc(O)c12)C(=O)O	H37Rv			resazurin		MIC bound		>6.25 µg/mL
Clc1ccc(-n2cc(CNC3c4ccccc4-c4ccccc43)nn2)c(Cl)c1	Specimen 192			broth dilution		MIC99		>246 µM
CCCCCCCCCCCCCCCCCCNCCN[C@H]1C[C@H]2CC[C@]1(C)C2(C)C						MIC		25 µM
N#C/C(=C/c1cccc(Br)c1)n1nnc2ccccc21	ATCC 27294					MIC50		29.6 µM
O=C1c2ccccc2OC(c2ccccc2)C1I	H37Rv					inhibition	12.5 µg/mL	0%
CC(C)(CO)NCCNCCc1ccccc1F						MIC		25 µM
COC(=O)c1nc(NN)[nH]c(=O)c1CCCCCc1c(C(=O)OC)[nH]c(NN)cc1=O	H37Rv			BACTEC		MIC bound		>12.5 µg/mL
COc1cccc(/C=C(\C#N)n2nnc3ccccc32)c1	ATCC 27294					MIC50		52.7 µM
Cc1nc2nc(C)n(CCN3CCOCC3)c(=O)c2c(-c2cccc([N+](=O)[O-])c2)c1C(=O)CCCCCCCCCCN1CCC(c2ccccc2)(c2ccccc2)CC1	H37Rv		VERO			MIC		3.13 µg/mL
Clc1ccc(-n2cc(CSC3c4ccccc4-c4ccccc43)nn2)cc1	H37Rv			broth dilution		MIC99		74.2 µM
Cc1cn2c(C(=O)NCc3ccc(N4CCC(c5ccc(OC(F)(F)F)cc5)CC4)cc3)c(C)nc2s1	H37Rv	QcrB4 A396T		resazurin / fluorescence		MIC		<0.024 µM
Cc1ccc(-c2cc(CN3CCOCC3)c(C)n2-c2ccc(F)cc2)cc1	H37Rv					MIC90		55.56 µM
NNC(=O)c1ccncc1	H37Rv	EJMCh6A MmpL3  (V684A)		visual reading / absorbance		MIC90		0.07 µM
Cc1cn2c(C(=O)NCc3ccc(N4CCN(c5ccc(C(F)(F)F)cn5)CC4)c(F)c3)c(C)nc2s1	H37Rv	QcrB6 A317T		resazurin / fluorescence		MIC		0.15 µM
CC(=O)Nc1ccc(S(=O)(=O)NNc2nc(N(C)C)nc(N(C)C)n2)cc1	H37Rv			BACTEC		MIC		≥12.5 µg/mL
COc1ccc(C2CC(=O)c3cc(C(=O)O)ccc3O2)cc1	H37Rv					EC50		>12.5 µg/mL
Cc1nn(C(=O)c2ccncc2)c2c1C(c1ccccc1[N+](=O)[O-])SC(N)=N2	H37Rv			resazurin		inhibition	6.25 µg/mL	99%
COc1ccc(C2CC(=O)c3ccc(OC)cc3O2)cc1						EC50		>12.5 µg/mL
Cc1ccc(-n2cc(CNC3c4ccccc4-c4ccccc43)nn2)cc1C	Specimen 192			broth dilution		MIC99		>273 µM
COc1cc(OC)c(NC(=O)NNC(=O)C(=O)NC2CC2)cc1Cl	H37Rv		VERO	BACTEC		MIC		12.5 µg/mL
Cc1c(CN2CCOCC2)cc(-c2ccc(C(C)C)cc2)n1-c1ccc(F)cc1	H37Rv					MIC90		28.73 µM
CCc1cn(COCCO)c(=O)[nH]c1=O	H37Ra					EC50		>100 µg/mL
Cc1[nH]nc(-c2cccnc2)c1N=NN1CCOCC1	H37Rv			resazurin		inhibition	6.26 µg/mL	-8%
N[C@@H]1CONC1=O	592 strains			agar		EC50		<30 µg/mL
CCCCCCCCC#Cc1cn(COC(CO)CO)c(=O)[nH]c1=O	H37Ra					EC50		10 µg/mL
C/C(=C1\NC(=S)NC1=O)c1ccccc1	H37Rv			BACTEC		EC50		>6.25 µg/mL
COc1ccc2c(c1)[n+]([O-])c(/C(C)=N/NC(=O)c1ccccc1O)c(C)[n+]2[O-]	PZA-R					MIC		6.3 µg/mL
O=C1NC(=S)N/C1=C/c1cccc(OCc2ccc(Cl)cc2Cl)c1	H37Rv			BACTEC		inhibition	6.25 µg/mL	84%
O=[N+]([O-])c1ccc2c(c1)c(S(=O)(=O)O)cc1nonc12	H37Rv			resazurin		inhibition	6.25 µg/mL	7%
CC(=O)Oc1ccc([C@H]2Oc3cc(OC(C)=O)cc(OC(C)=O)c3C(=O)[C@@H]2c2c(OC(C)=O)cc(OC(C)=O)c3c(=O)cc(-c4ccc(OC(C)=O)c(OC(C)=O)c4)oc23)cc1						EC50		>12.5 µg/mL
CC(C)C1C(=O)N(c2c(F)c(F)c(F)c(F)c2F)C(=S)N1CCS(=O)c1ccccc1	H37Rv			BACTEC		inhibition	12.5 µg/mL	9%
Nc1ccc(C(=O)O)c(O)c1	35 strains			agar		inhibition	5 µg/mL	91%
CN1C(=O)CCCCCCCCCCSc2ccccc21	H37Rv			BACTEC		inhibition	12.5 µg/mL	3%
CCCOc1ccc(/C=C2/NC(=S)NC2=O)cc1	H37Rv			BACTEC		inhibition	6.25 µg/mL	95%

11 of the rows above, restated:

O=C1c2ccccc2OC(c2ccccc2)C1I ; strain: H37Rv ; measure: inhibition ; dose: 12.5 µg/mL ; result: 0%
CC(C)CN1CC(=O)N2CCCN2C(=O)C1 ; strain: H37Rv ; read by: BACTEC ; measure: MIC bound ; result: >12.5 µg/mL
[N-]=[N+]=NC(CCl)c1cn(COCCO)c(=O)[nH]c1=O ; strain: H37Ra ; measure: EC50 ; result: 10 µg/mL
O=C1NC(=S)N/C1=C/c1cccc(OCc2ccc(Cl)cc2Cl)c1 ; strain: H37Rv ; read by: BACTEC ; measure: inhibition ; dose: 6.25 µg/mL ; result: 84%
CCc1ccc(-c2cc(CN3CCOCC3)c(C)n2-c2ccc(F)cc2)cc1 ; strain: H37Rv DR3 ; mutations: V681I S87P ; measure: MIC ; result: 0.66 µM
Cc1[nH]nc(-c2cccnc2)c1N=NN1CCOCC1 ; strain: H37Rv ; read by: resazurin ; measure: inhibition ; dose: 6.26 µg/mL ; result: -8%
CCC(Oc1c2ccoc2c(OC)c2oc(=O)cc(O)c12)C(=O)O ; strain: H37Rv ; read by: resazurin ; measure: MIC bound ; result: >6.25 µg/mL
Cc1c(CN2CCOCC2)cc(-c2ccc(C(C)C)cc2)n1-c1ccc(F)cc1 ; strain: H37Rv ; measure: MIC90 ; result: 28.73 µM
Cc1nn(C(=O)c2ccncc2)c2c1C(c1ccccc1[N+](=O)[O-])SC(N)=N2 ; strain: H37Rv ; read by: resazurin ; measure: inhibition ; dose: 6.25 µg/mL ; result: 99%
CCCCN(CCNCCc1ccccc1OC)Cc1ccccc1 ; measure: MIC ; result: 50 µM
CN1c2ccc(C=O)cc2Sc2cc(C=O)ccc21 ; strain: H37Rv ; read by: BACTEC ; measure: MIC bound ; result: ≤12.5 µg/mL